According to patent US20240401020A1, “METHODS FOR PREVENTING INTER-DROPLET TRANSFER OF A FLUORESCENT PRODUCT IN AQUEOUS DROPLETS BY FORMING A SOLUBLE COMPLEX WITH CYCLODEXTRIN” (PATTERN BIOSCIENCE, INC., priority 2021, published 2024):

Key:
Assay type in all cases: cell-based
Details in all cases: 2 mM cyclodextrin vs no cyclodextrin, picoliter droplets, 38° C., 6 hours
[1] = system: droplets containing Klebsiella pneumoniae cells; experiment: Droplet array fluorescence leakage test with/without cyclodextrin, Klebsiella pneumoniae
[2] = system: droplets containing a first strain of Serratia marcescens cells; experiment: Droplet array fluorescence leakage test with/without cyclodextrin, Serratia marcescens first strain
[3] = system: droplets containing Escherichia coli cells; experiment: Droplet array fluorescence leakage test with/without cyclodextrin, Escherichia coli

With cyclodextrin as the substance, how does the “leakage of the fluorescent marker” value ([1]; FIG. 23A-C) read?
Its value is “decreased”.

What about the “intensity of fluorescence of the individual droplets” value (shortened to “intensity”) ([1]; FIG. 23B/23C) of the same substance?
The value was “significantly higher”.

And the “leakage of the fluorescent marker” value ([2]; FIG. 25A-C)?
Its value is “decreased”.

And the “intensity” value ([2]; FIG. 25B/25C)?
Its value is “significantly higher”.

And the “leakage of the fluorescent marker” value ([3]; FIG. 24A-C)?
Its value is “decreased”.

What about the “intensity” value ([3]; FIG. 24B/24C) of the same substance?
Its value is “significantly higher”.
